Compound potency records, mixed from different reports. Data source: NIAID ChemDB in PubChem.

All rows: growth or infection tests; agent: Hepatitis C virus; cell line: Huh7; read-out: EC50

Two numbers with a dash give a range or band. Rows are shuffled and stem from different studies. ECn: concentration that inhibits the pathogen or its effect by n%.

{"SMILES": "Fc1ccccc1-c1nc2ccn(Cc3ccc(-c4ccc(C(F)(F)F)cc4C(F)(F)F)nn3)cc-2n1", "strain or isolate": "1b", "read by": "luciferase", "value": "0.0015 µM"}
{"SMILES": "CCC[C@H](NC(=O)[C@@H]1[C@H]2CCC[C@H]2CN1C(=O)[C@@H](NC(=O)[C@@H](NC(=O)c1cnccn1)C1CCCCC1)C(C)(C)C)C(=O)C(=O)NC1CC1", "strain or isolate": "1b H77", "changes": "R1135K S1560G K1691R T1993A G2042C L2155P P2166L", "read by": "PCR", "value": "0.54 µM"}
{"SMILES": "N#Cc1c(-c2ccccc2)nc(SCc2nc3ccccc3[nH]2)[nH]c1=O", "read by": "replicon / PCR", "value": "0.345 µM"}
{"SMILES": "O=C(O)c1cc2c(s1)c(C1CCCCC1)c(-c1ccccc1)n2Cc1ccccc1", "value": "10.7 µM"}
{"SMILES": "CC(=O)Nc1ccc(-c2ccc(Cl)cc2)c(COc2ccc(-c3nc4cc(C(=O)O)ccc4n3C3CCCCC3)cc2)c1", "strain or isolate": "2b", "read by": "luciferase", "value": "15.7 µM"}
{"SMILES": "C[C@H](NP(=O)(OC[C@H]1O[C@@H](n2cnc3c(=O)[nH]c(N)nc32)[C@](C)(O)[C@@H]1F)Oc1ccc(F)c(Cl)c1)C(=O)OC1CCCCC1", "read by": "luciferase", "value": "10–100 µM"}
{"SMILES": "CN(C)CCN1Cc2ccccc2-c2c(C3CCCCC3)c3sc(C(=O)O)cc3n2CC1=O", "value": "0.39 µM"}
{"SMILES": "O=C(O)c1c(-c2ccc(O)cc2)nc(SCc2nc3ccccc3[nH]2)[nH]c1=O", "read by": "replicon / PCR", "value": "0.116 µM"}
{"SMILES": "C[C@@]1(O)[C@H](O)[C@@H](CO)O[C@H]1n1ccc(N)nc1=O", "strain or isolate": "GT2a", "read by": "luciferase / replicon", "value": "3.765 µM"}
{"SMILES": "N#Cc1c(-c2ccc(O)cc2)nc(SCc2nc3ccccc3[nH]2)[nH]c1=O", "read by": "replicon / PCR", "value": "0.123 µM"}
{"SMILES": "O=C(O)c1cc2c(s1)c(C1CCCCC1)c(-c1ccccc1)n2CCN1CCCC1", "value": "3.5 µM"}
{"SMILES": "C[C@@]1(O)[C@H](O)[C@@H](CO)O[C@H]1n1cnc2c(=O)[nH]c(N)nc21", "setting": "24 h", "value": "4.2 µM"}
{"SMILES": "CC1CCC(C(=O)N(c2cc(C#CC(C)(C)C)sc2C(=O)O)C2CCC(O)CC2)CC1", "strain or isolate": "GT2a", "read by": "luciferase / replicon", "value": "3.998 µM"}
{"SMILES": "CCOc1nc(N)nc2c1ncn2[C@@H]1O[C@H](COP(=O)(N[C@@H](C)C(=O)OC2CCCCC2)Oc2ccccc2)[C@@H](F)[C@@]1(C)O", "read by": "luciferase", "value": "<1 µM"}
{"SMILES": "CS(=O)(=O)Nc1ccc2c(c1)S(=O)(=O)N=C(C1=C(O)[C@@H]3[C@H]4CC[C@H](C4)[C@@H]3N(Cc3ccc(F)cc3)C1=O)N2", "strain or isolate": "GT2a", "read by": "luciferase / replicon", "value": ">100 µM"}
{"SMILES": "O=C(O)c1c(-c2ccco2)nc(SCc2nc3ccccc3[nH]2)[nH]c1=O", "read by": "replicon / PCR", "value": "0.181 µM"}
{"SMILES": "C[C@@]1(O)[C@H](F)[C@@H](CO)O[C@H]1n1cnc2c(=O)[nH]c(N)nc21", "read by": "luciferase", "value": "10–100 µM"}
{"SMILES": "C[C@@]1(O)[C@H](O)[C@@H](CO)O[C@H]1n1cnc2c(N)ncnc21", "strain or isolate": "6a", "read by": "luciferase", "value": "0.2516 µM"}
{"SMILES": "CCOc1nc(N)nc2c1ncn2[C@@H]1O[C@H](COP(=O)(N[C@@H](C)C(=O)OC2CCCCC2)Oc2ccc(F)c(Cl)c2)[C@@H](F)[C@@]1(C)O", "read by": "luciferase", "value": "<1 µM"}
{"SMILES": "N#Cc1c(-c2ccccc2O)nc(SCc2nc3ccccc3[nH]2)[nH]c1=O", "read by": "replicon / PCR", "value": "0.145 µM"}
{"SMILES": "CN1CCn2c(c(C3CCCCC3)c3sc(C(=O)O)cc32)-c2ccccc2C1", "value": "0.62 µM"}

A second listing of 3 rows from above:

C[C@@]1(O)[C@H](O)[C@@H](CO)O[C@H]1n1cnc2c(N)ncnc21 ; strain or isolate: 6a ; read by: luciferase ; value: 0.2516 µM
O=C(O)c1cc2c(s1)c(C1CCCCC1)c(-c1ccccc1)n2Cc1ccccc1 ; value: 10.7 µM
O=C(O)c1cc2c(s1)c(C1CCCCC1)c(-c1ccccc1)n2CCN1CCCC1 ; value: 3.5 µM